Anti-infective test results gathered from many reports (values: NIAID ChemDB through PubChem).

All rows: whole-cell or culture tests; species: Plasmodium falciparum; read-out: EC50

An empty or dashed field is not shown. Conditions beyond the fields shown may differ between rows. ECn is the concentration giving n% inhibition of infection, replication or growth.

structure | strain or isolate | mutations | cell line | method | value
O=C(CC1NCCC[C@@H]1O)Cn1cncc(-c2ccccc2)c1=O | FCR3 |  | Human A+ erythrocytes | LDH / absorbance | 0.0422 µg/mL
O=C(CCC(c1ccccc1)P(=O)(O)O)NO | K1 |  | RBC | absorbance | 3.87 µM
O=c1c2ccccc2ncn1CCCC1NCC[C@@H]1O | FCR3 |  | Human A+ erythrocytes | LDH / absorbance | >1 µg/mL
Cc1ccc(OCC(O)CN2CCc3ccccc3C2)c(C(C)(C)C)c1 | K1 |  | Erythrocytes | flow cytometry | 1.66 µM
Clc1cccc(NCn2nnc3ccccc32)c1 | Dd2 |  |  |  | >50 µM
O=C(CC1NCCC[C@@H]1O)Cn1cnc2c(c1=O)CCCCC2 | FCR3 |  | Human A+ erythrocytes | LDH / absorbance | 0.0411 µg/mL
Cc1cccc(OCCNC(=O)c2ccc3ccccc3c2O)c1 | Dd2 |  |  |  | >50 µM
O=c1c2ccccc2ncn1CCCC1NCCC[C@@H]1O | FCR3 |  | Human A+ erythrocytes | LDH / absorbance | 0.0225 µg/mL
C[C@@H]1CC[C@H]2[C@@H](C)C(=O)O[C@@H]3OC4(C)CC[C@@H]1[C@]32OO4 | KAE678R-3 | KAE678-resistant pfatp4 I203M/I263V |  | SYBR Green / fluorescence | 0.0181 µM
CCN(CC)CCCC(C)Nc1ccnc2cc(Cl)ccc12 | FCM29 |  | human red blood cells | broth dilution / radiometric | 0.641 µM
O[C@H](c1cc(C(F)(F)F)nc2c(C(F)(F)F)cccc12)[C@@H]1CCCCN1 | GNF-Pf4492R-2 | GNF-Pf4492-resistant pfatp4 I203L/P990R |  | SYBR Green / fluorescence | 0.0113 µM
CC(C)c1ccc(OCCNC(=O)c2ccccc2Cl)cc1 | Dd2 |  |  |  | 22 µM
c1ccc(C(CCNCC2(c3ccc4c(c3)OCCO4)CCOCC2)c2ccccc2)cc1 | K1 |  | Erythrocytes | flow cytometry | 5.22 µM
O=C(CC1NCCC[C@@H]1O)Cn1cnc2ccccc2c1=O | K1 |  | Human A+ erythrocytes | LDH / absorbance | 0.0014 µg/mL
c1ccc(Cc2ccccc2OCCCCn2cccc2)cc1 | K1 |  | Erythrocytes | flow cytometry | >20.5 µM
COc1cccc(C=C2SC(=O)N(CC(=O)N3CCN(c4ccccc4)CC3)C2=O)c1 | W2 | Chloroquine-resistant |  | fluorescence | >10 µM
CC(NCc1ccc(OCc2ccccc2)cc1)C(O)c1ccccc1 | 3D7 |  | Erythrocytes | flow cytometry | 3.9 µM
COc1cc(OC)c(C=C2SC(=O)N(Cc3ccc(C)cc3)C2=O)c(OC)c1 | W2 | Chloroquine-resistant |  | fluorescence | 8.88 µM
CC1(C)O[C@@H]1COc1c2occc2cc2ccc(=O)oc12 | CQ-resistant |  | RBC |  | 2.5 µg/mL
O=CN(O)CCCP(=O)(O)O | K1 |  | RBC | absorbance | 3.71 µM
c1ccc(-c2ccccc2OCCCCN2CCCCC2)cc1 | 3D7 |  | Erythrocytes | flow cytometry | >13.5 µM
C[C@@H]1CC[C@H]2[C@@H](C)C(=O)O[C@@H]3OC4(C)CC[C@@H]1[C@]32OO4 | K1 |  | Erythrocyte | LDH | 0.006 µg/mL
Cc1cccc(OCCNC(=O)c2ccccc2Cl)c1 | Dd2 |  |  |  | 7.5 µM
COc1cc(OC)c(C=C2SC(=O)N(CC(=O)N3CCN(c4ccc(Cl)cc4)CC3)C2=O)c(OC)c1 | W2 | Chloroquine-resistant |  | fluorescence | 1.43 µM
CCCCNCCCCCOc1ccc2ccccc2c1 | K1 |  | Erythrocytes | flow cytometry | 1.36 µM
COc1cc(OC)c(C=C2SC(=O)N(CC(=O)N3CCN(c4ccc(C#N)cc4)CC3)C2=O)c(OC)c1 | W2 | Chloroquine-resistant |  | fluorescence | 3.97 µM
O[C@H](c1cc(C(F)(F)F)nc2c(C(F)(F)F)cccc12)[C@@H]1CCCCN1 | W2 |  | human red blood cells | broth dilution / radiometric | 0.018 µM
CCN(CC)CCOc1ccccc1C(=O)CCc1ccccc1 | 3D7 |  | Erythrocytes | flow cytometry | >18.8 µM
O=C(NCCOc1ccc2ccccc2c1)c1ccccc1O | Dd2 |  |  |  | 3 µM

4 of the rows above, restated:

structure	strain or isolate	mutations	cell line	method	value
CC(NCc1ccc(OCc2ccccc2)cc1)C(O)c1ccccc1	3D7		Erythrocytes	flow cytometry	3.9 µM
C[C@@H]1CC[C@H]2[C@@H](C)C(=O)O[C@@H]3OC4(C)CC[C@@H]1[C@]32OO4	K1		Erythrocyte	LDH	0.006 µg/mL
O=C(CC1NCCC[C@@H]1O)Cn1cncc(-c2ccccc2)c1=O	FCR3		Human A+ erythrocytes	LDH / absorbance	0.0422 µg/mL
O=C(CC1NCCC[C@@H]1O)Cn1cnc2ccccc2c1=O	K1		Human A+ erythrocytes	LDH / absorbance	0.0014 µg/mL